In article PMC4496674, “Tackling Critical Catalytic Residues in Helicobacter pylori L-Asparaginase” (Biomolecules, 2015) one finds K0.5, kcat and kcat/Km data, which are given here for one substance.

In the series the test system is NC(=O)C[C@H](N)C(=O)O. Kind of series: purified protein. The settings on record: 50 mM HEPES pH 7.5, 37 °C, hyperbolic.

For the substance “HpASNase (Helicobacter pylori 26695; E289A)”, the K0.5 is 0.17 ± 0.02 mM, the kcat was found to be 0.44 s⁻¹ and the kcat/Km was found to be 2600 M⁻¹ s⁻¹.
